This is an account of results in ChEMBL document CHEMBL1123306, “31P nuclear magnetic resonance spectroscopic observation of the intracellular transformations of oncostatic cyclophosphamide metabolites” (1986).

Data set [1] is filed under the species Homo sapiens. The data set is described as follows: Compound was evaluated for its Intracellular transformation in U937 human cells, which followed first order kinetics, and t1/2 value was reported at 23 degree Centigrade. The note with it: u-937.
The species entered for data set [2] is Homo sapiens. The data set is described as follows: Compound was evaluated for its Intracellular transformation in U937 human cells, which followed first order kinetics, and t1/2 value was reported at 37 degree Celsius in a 70 mM phosphate buffer at pH 7. The note with it: u-937, pH 7.
Data set [3] is filed under the species Homo sapiens. As to the kind of experiment: Compound was evaluated for its Intracellular transformation in U937 human cells, which followed first order kinetics and k, first order rate constant value was reported at 23 degree Centigrade. Particulars: u-937.

Turning to `NP(=O)(O)N(CCCl)CCCl`, the T1/2 was 2.08 h in the data set filed under Homo sapiens [1] and 0.8 h in the data set listed under Homo sapiens [2]. In the data set filed under Homo sapiens [3], this compound showed a k of 0.0054 min⁻¹.
